For assay [1], the target named is M2-AH-5 mutant (Lys49, Arg53, Lys60, Arg61 replaced by Phe) (Influenza A virus A/WSN/33 (H1N1)). The experiment in a line: co-IP.
The target in assay [2] is M2-AH-4 mutant (three lysines instead of Phe48, Ile51, Phe55) (Influenza A virus A/WSN/33 (H1N1)). Kind of assay: co-IP.

Consider “human DHHC20 fused at its C-terminus to a myc-tag (from UniProt Q5W0Z9 5-299) (enzyme)”, for which, in assay [1], the co-precipitated DHHC20-myc per M2, percent of M2-wt was 20%. Also, in assay [2], the co-precipitated DHHC20-myc per M2, fold of M2-wt amounted to 2 fold.

(Values after publication PMC10622425, “The role of an amphiphilic helix and transmembrane region in the efficient acylation of the M2 protein from influenza virus” (2023).)
